Results of unrelated studies side by side (data: NIAID ChemDB).

All rows: tests in culture; organism: HIV-1; read by: p24 / ELISA / antigen; endpoint: EC50

Rows are shuffled and stem from different studies.

SMILES | conditions | cell line | strain or isolate | result
CC1(C)C2CC[C@@]3(C)C4CC[C@@]5(C)CC[C@](C)(C(=O)O)C[C@H]5C4=CC(=O)C3[C@@]2(C)CC[C@@H]1O[C@@H]1O[C@H](C(=O)O)[C@@H](O[C@@H]2O[C@H](C(=O)O)[C@@H](O)[C@H](O)[C@H]2O)[C@H](O)[C@H]1O | - | MT-4 | EVK | 125 µg/mL
CC[C@@H](C)[C@@H](N/C=C1\C(=O)C(O)C(C(C)C)=C2C=C(C)C(c3c(C)cc4c(C(C)C)c(O)c(O)c(C=N[C@H](C(=O)O)[C@@H](C)CC)c4c3O)=C(O)C21)C(=O)O.[Na+].[Na+] | - | TZM-bl | IIIB | 0.51 µM
CCOC(=O)[C@H](C)N[P@](=O)(CO[C@@H]1C=C(F)[C@H](n2cnc3c(N)ncnc32)O1)Oc1ccccc1 | 4 d | PBMCs | BR-92-025 (subtype C) | 0.068 µM
CC1=CC2=C(C(C)C)C(O)C(=O)/C(=C\NC(C)(C)C(=O)O)C2C(O)=C1c1c(C)cc2c(C(C)C)c(O)c(O)c(C=NC(C)(C)C(=O)O)c2c1O.[Na+].[Na+] | - | TZM-bl | IIIB | 0.85 µM
Cc1cn([C@H]2C[C@H](N=[N+]=[N-])[C@@H](CO)O2)c(=O)[nH]c1=O | - | C8166 | IIIB | 0.00147 µg/mL
COc1ccc(C(C)(C)CCCC(C)C)c(OC)c1O | - | PBMC | - | 15.8 µM
Cc1ccc(-c2ccc3c(c2)C=C(C(=O)Nc2ccc(C[N+](C)(C)C4CCOCC4)cc2)CCC3)cc1 | - | PBMC | BAL R5 | 0.1 µM
C/C=C/C1C(=O)OCC1CCC(C)=O | - | C8166 | LAI | 10.52 µM
CC1=CC2=C(C(C)C)C(O)C(=O)/C(=C\N[C@H](CC(C)C)C(=O)O)C2C(O)=C1c1c(C)cc2c(C(C)C)c(O)c(O)c(C=N[C@@H](CC(C)C)C(=O)O)c2c1O.[Na+].[Na+] | - | TZM-bl | IIIB | 0.71 µM
C[C@H](Cn1cnc2c(N)ncnc21)OCP(=O)(O)O | 4 d | PBMCs | UG-92-024 (subtype D) | 3.9 µM
Nc1ccn([C@H]2CC[C@@H](CO)O2)c(=O)n1 | - | PBM | - | 0.0028 µM
CC(C)(C)NC(=O)[C@@H]1CN(Cc2cccnc2)CCN1C[C@@H](O)C[C@@H](Cc1ccccc1)C(=O)N[C@H]1c2ccccc2C[C@H]1O | - | C8166 | LAI | 0.00392 µg/mL
Nc1ncnc2c1ncn2[C@@H]1O[C@H](OCP(=O)(O)O)C=C1F | 4 d | PBMCs | BR-92-025 (subtype C) | 5.1 µM
CC(C)[C@H](NC(=O)c1ccc2ccccc2n1)C(=O)N[C@@H](Cc1ccccc1)[C@H](O)CN1CC[C@@H](OCc2ccncc2)C[C@H]1C(=O)NC(C)(C)C | - | PBMC | NEVR | 0.0036 µM
COc1cc(O)cc(C(C)(C)CCCC(C)C)c1 | - | PBMC | - | 39.9 µM

For reference, 2 entries again:

COc1cc(O)cc(C(C)(C)CCCC(C)C)c1 ; cell line: PBMC ; result: 39.9 µM
C/C=C/C1C(=O)OCC1CCC(C)=O ; cell line: C8166 ; strain or isolate: LAI ; result: 10.52 µM

An empty or dashed field is not shown. ECn: concentration that inhibits the pathogen or its effect by n%.